Results of unrelated studies side by side (data: NIAID ChemDB).

Shared fields: growth or infection tests

Blank or dashed fields: not listed here. ECn: concentration that inhibits the pathogen or its effect by n%. A number after MIC or MFC names an inhibition level or a share of isolates. Lines come from different laboratories, so protocols vary. Inhibition is in % at the dose shown (toxicity tests: loss of growth or viability). Fold resistance: result on the changed form divided by that on wild type.

{"structure": "CCOC(=O)Nc1cc(NC/C(=N/O)c2ccc(Cl)cc2Cl)c([N+](=O)[O-])c(N)n1", "species": "Encephalitozoon intestinalis", "dose": "0.1 µg/mL", "measure": "inhibition", "cells": "RK-13", "result": "7.1%"}
{"structure": "CC[C@@]1(OC(=O)CN)C(=O)OCc2c1cc1n(c2=O)Cc2cc3cc4c(cc3nc2-1)OCO4", "species": "Saccharomyces cerevisiae", "measure": "MIC", "strain": "Mutant ΔERG6 ΔTOP1", "result": ">100 µg/mL"}
{"structure": "Nc1ncnc2c1ncn2CCOCP(=O)(O)O", "species": "Epstein-Barr virus", "dose": "0.01 µM", "measure": "inhibition", "cells": "P3HR-1", "result": "5%"}
{"structure": "CO/N=C1\\CN(c2nc3c(cc2F)c(=O)c(C(=O)O)cn3C2CC2)CC1CN", "species": "Haemophilus influenzae", "measure": "MIC50", "strain": "38 strains (ampicillin-susceptible)", "result": "≤0.004 µg/mL"}
{"structure": "Cc1cn([C@H]2C=C[C@@H](CO)O2)c(=O)[nH]c1=O", "species": "HIV-2", "method": "β-galactosidase / absorbance", "measure": "EC50", "strain": "ROD9", "cells": "MAGIC-5A", "result": "0.8 µM"}
{"structure": "NC1CCN(c2nc3c(cc2F)c(=O)c(C(=O)O)cn3-c2ccc(F)cc2F)C1", "species": "Staphylococcus aureus", "measure": "MIC50", "strain": "24 strains (ofloxacin-susceptible)", "result": "0.06 µg/mL"}
{"structure": "COc1cc(NCc2cnc3nc(N)nc(N)c3c2C)cc(OC)c1OC", "species": "Encephalitozoon intestinalis", "dose": "0.1 µg/mL", "measure": "inhibition", "cells": "RK-13", "result": "38.2%"}
{"structure": "COc1cc(Cc2cnc(N)nc2N)cc(OC)c1OCCCNc1ccc(S(=O)(=O)c2ccc(N)cc2)cc1", "species": "Mycobacterium ulcerans", "measure": "MIC", "strain": "Isolate 94-886", "result": "2 µg/mL"}
{"structure": "OC(Cn1cncn1)(Cn1cncn1)c1ccc(F)cc1F", "species": "Candida albicans", "method": "broth dilution", "measure": "MIC", "strain": "YL 328", "result": "512 µg/mL"}
{"structure": "Nc1ncnc2c1ncn2CCOCP(=O)(O)O", "species": "Varicella zoster virus", "method": "cytopathic effect", "measure": "EC50", "strain": "OKA (WILD TYPE)", "cells": "HEL", "result": "17.8 µM"}
{"structure": "Nc1nccc2c1ncn2[C@@H]1C[C@H](CO)[C@@H](O)[C@H]1O", "species": "Vesicular stomatitis virus", "method": "cytopathic effect", "measure": "EC50", "cells": "HeLa", "result": "0.7 µg/mL"}
{"structure": "C#CC[C@@H](C(=O)N[C@H](/C=C/C(=O)OCC)C[C@@H]1CCNC1=O)n1cccc(NC(=O)c2cc(C)on2)c1=O", "species": "Rhinovirus", "method": "cytopathic effect / XTT", "measure": "EC50", "strain": "Serotype 2", "cells": "H1-HELA", "result": "0.013 µM"}
{"structure": "C[C@@H]1CN(c2c(F)c(N)c3c(=O)c(C(=O)O)cn(C4CC4)c3c2F)C[C@H](C)N1", "species": "Encephalitozoon cuniculi", "dose": "20 µg/mL", "method": "cytopathic effect", "measure": "inhibition", "cells": "MRC-5 fibroblasts", "result": "66%"}
{"structure": "NC12CC3CC(CC(C3)C1)C2", "species": "Influenza A virus", "method": "plaque count", "measure": "EC50", "strain": "H1N1 NWS/33", "cells": "MDCK", "result": ">50 µg/mL"}
{"structure": "O=c1c(O)c(-c2ccc(O)c(O)c2)oc2cc(O)cc(O)c12", "species": "Candida tropicalis", "method": "broth dilution", "measure": "MIC50", "strain": "Clinical isolate 5", "result": ">128 µg/mL"}
{"structure": "CCCSc1ccc2nc(NC(=O)OC)[nH]c2c1", "species": "Encephalitozoon cuniculi", "dose": "0.001 µg/mL", "method": "cytopathic effect", "measure": "inhibition", "cells": "MRC-5 fibroblasts", "result": "8%"}
{"structure": "CCOC(=O)Nc1cc2[nH]c(-c3ccccc3)nc2c(N)n1", "species": "Encephalitozoon intestinalis", "dose": "0.01 µg/mL", "measure": "inhibition", "cells": "RK-13", "result": "3.2%"}
{"structure": "Nc1ccc(S(=O)(=O)c2ccc(N)cc2)cc1", "species": "Mycobacterium ulcerans", "measure": "MBC", "strain": "Isolate 94-539", "result": "4 µg/mL"}
{"structure": "CC(C)=CCN1Cc2cc(Cl)cc3[nH]c(=S)n(c23)C[C@@H]1C", "species": "HIV-1", "measure": "EC95", "changes": "RT-K70R K101E", "cells": "MT-4", "result": ">3 µM"}
{"structure": "CC[C@@]1(OC(=O)CN)C(=O)OCc2c1cc1n(c2=O)Cc2c-1nc1cc3c(cc1c2CCl)OCO3", "species": "Saccharomyces cerevisiae", "measure": "MIC", "strain": "Mutant ΔERG6 ΔTOP1", "result": ">100 µg/mL"}
{"structure": "Nc1ncnc2c1ncn2C[C@H](CO)OCP(=O)(O)O", "species": "Adenovirus", "method": "virus yield", "measure": "EC90", "strain": "WT 300 (TYPE 5)", "result": "0.1 µg/mL"}
{"structure": "NC(N)=NS(=O)(=O)c1ccc(N)cc1", "species": "Encephalitozoon cuniculi", "dose": "25 µg/mL", "method": "cytopathic effect", "measure": "inhibition", "cells": "MRC-5 fibroblasts", "result": "0%"}
{"structure": "NC(=O)c1ncn([C@@H]2O[C@H](CO)[C@@H](O)[C@H]2O)n1", "species": "Measles virus", "method": "cytopathic effect", "measure": "EC50", "strain": "Halonen", "cells": "CV-1", "result": "1 µg/mL"}
{"structure": "CCCN(CCC)c1c([N+](=O)[O-])cc(S(N)(=O)=O)cc1[N+](=O)[O-]", "species": "Toxoplasma gondii", "measure": "EC50", "strain": "Trifluralin-resistant", "result": "0.2 µM"}
{"structure": "Nc1nc2c(ncn2CCOCP(=O)(O)O)c(=O)[nH]1", "species": "Parainfluenza virus", "method": "virus yield", "measure": "EC90", "strain": "C243 (TYPE 3)", "result": "17 µg/mL"}
{"structure": "C#C[C@]1(CO)O[C@@H](n2cnc3c(N)nc(F)nc32)CC1O", "species": "HIV-2", "method": "β-galactosidase / absorbance", "measure": "fold resistance", "strain": "ROD9", "changes": "K65R Q151M M184V", "cells": "MAGIC-5A", "result": "15"}
{"structure": "NC(=O)c1ncn([C@@H]2O[C@H](CO)[C@@H](O)[C@H]2O)c1O", "species": "Parainfluenza virus", "method": "plaque count", "measure": "EC50", "strain": "TYPE 3/C243", "cells": "VERO", "result": "10.7 µg/mL"}
{"structure": "C[C@@H]1[C@H](O)[C@@H](C)/C=C/C=C/CC/C=C/C=C/C=C/C=C/C(O[C@H]2O[C@H](C)[C@@H](O)[C@H](N)[C@@H]2O)CC2O[C@](O)(CC(O)C(O)CCC(O)CC(O)CC(O)CC(=O)O[C@H]1C)CC(O)C2C(=O)O", "species": "Candida krusei", "method": "broth dilution", "measure": "MIC100", "strain": "LM 120", "result": "64 µg/mL"}
{"structure": "NC[C@@H]1O[C@H](O[C@H]2[C@@H](O)[C@H](O[C@@H]3[C@@H](O)[C@H](N)C[C@H](N)[C@H]3O[C@H]3O[C@H](CO)[C@@H](O)[C@H](O)[C@H]3N)O[C@@H]2CO)[C@H](N)[C@@H](O)[C@@H]1O", "species": "Encephalitozoon cuniculi", "dose": "500 µg/mL", "method": "cytopathic effect", "measure": "inhibition", "cells": "MRC-5 fibroblasts", "result": "0%"}
{"structure": "Nc1ncnc2c1ncn2C[C@H](O)CO", "species": "Epstein-Barr virus", "dose": "1 µM", "measure": "inhibition", "cells": "P3HR-1", "result": "4%"}
{"structure": "CCO/N=C/c1ccc(OCCC2CCN(c3ccc(C)nn3)CC2)cc1", "species": "Rhinovirus", "method": "neutral red", "measure": "EC50", "strain": "6360-CV41 (ICAM-1 receptor group 63)", "cells": "KB", "result": "0.002 µM"}
{"structure": "CC[C@@]1(O)C(=O)OCc2c1cc1n(c2=O)Cc2c-1nc1cc3c(cc1c2CCl)OCO3", "species": "Saccharomyces cerevisiae", "measure": "MIC", "strain": "Mutant ΔERG6 ΔTOP1", "result": ">100 µg/mL"}
{"structure": "C[C@@H](O)[C@H]1C(=O)N2C(C(=O)O)=C(SCCN=CN)C[C@H]12", "species": "Staphylococcus aureus", "measure": "MIC90", "strain": "25 strains (methicillin-susceptible)", "result": "0.06 µg/mL"}
{"structure": "CCCCCCCCCCCCCCCCCCCCCCOCC(C)(COCCCCCCCCCCCCCCCCCCCCCC)CO[C@]1(C(=O)O)C[C@H](OS(=O)(=O)O)[C@@H](NC(C)=O)[C@H]([C@H](OS(=O)(=O)O)[C@@H](COS(=O)(=O)O)OS(=O)(=O)O)O1", "species": "Respiratory syncytial virus", "method": "plaque count", "measure": "EC50", "strain": "LONG", "cells": "HEP-2", "result": "0.2 µM"}
{"structure": "COc1cc(NCc2cnc3nc(N)nc(N)c3c2C)cc(OC)c1", "species": "Encephalitozoon intestinalis", "dose": "1 µg/mL", "measure": "inhibition", "cells": "RK-13", "result": "70.4%"}
{"structure": "Nc1[nH]c(=O)ncc1F", "species": "Encephalitozoon cuniculi", "method": "cytopathic effect", "measure": "EC50", "cells": "MRC-5 fibroblasts", "result": ">100 µg/mL"}
{"structure": "C[C@H]1NCc2cc(-c3ccc4c(=O)c(C(=O)O)cn(C5CC5)c4c3OC(F)F)ccc21", "species": "Staphylococcus aureus", "measure": "MIC50", "strain": "24 strains (ofloxacin-susceptible)", "result": "0.03 µg/mL"}
{"structure": "CC[C@@]1(O)C(=O)OCc2c1cc1n(c2=O)Cc2cc3cc4c(cc3nc2-1)OCO4", "species": "Saccharomyces cerevisiae", "measure": "MIC", "strain": "Mutant ΔERG6", "result": ">100 µg/mL"}
{"structure": "C[C@H](Cc1ccc(O)c(O)c1)[C@@H](C)Cc1ccc(O)c(O)c1", "species": "Candida albicans", "method": "broth dilution", "measure": "MIC100", "strain": "CCC 125-2000", "result": "250 µg/mL"}
{"structure": "CC[C@@]1(O)C(=O)OCc2c1cc1n(c2=O)Cc2cc3ccccc3nc2-1", "species": "Saccharomyces cerevisiae", "measure": "MIC", "strain": "Mutant ΔERG6", "result": "6.25 µg/mL"}
{"structure": "C[C@H]1COc2c(N3CCN(C)CC3)c(F)cc3c(=O)c(C(=O)O)cn1c23", "species": "Streptococcus pneumoniae", "measure": "MIC", "strain": "Clinical isolate 6406", "result": "4 µg/mL"}
{"structure": "C[C@H]1COc2c(N3CCN(C)CC3)c(F)cc3c(=O)c(C(=O)O)cn1c23", "species": "Staphylococcus aureus", "measure": "MIC90", "strain": "24 strains (ofloxacin-susceptible)", "result": "0.5 µg/mL"}
{"structure": "Nc1ccnc2c1ncn2[C@H]1C=C[C@@H](OCP(=O)(O)O)O1", "species": "Adenovirus", "method": "virus yield", "measure": "EC90", "strain": "Chicago (type 1)", "result": "14 µg/mL"}
{"structure": "CN(C)[C@@H]1C(=O)C(C(N)=O)=C(O)[C@@]2(O)C(=O)C3=C(O)c4c(O)c(NC(=O)CN5CCOCC5)cc(F)c4C[C@H]3C[C@@H]12", "species": "Streptococcus pneumoniae", "method": "agar diffusion", "measure": "MIC", "strain": "160-tet", "result": "1 µg/mL"}
{"structure": "CCOC(=O)Nc1cc2oc(=O)c(-c3ccccc3)nc2c(N)n1", "species": "Encephalitozoon intestinalis", "dose": "1 µg/mL", "measure": "inhibition", "cells": "RK-13", "result": "37.2%"}
{"structure": "NC(=O)c1ncn([C@@H]2O[C@H](CO)[C@@H](O)[C@H]2O)n1", "species": "Influenza A virus", "measure": "MIC", "strain": "A/Maryland/104/68", "result": "0.1 µg/mL"}
{"structure": "CC[C@@]1(O)C(=O)OCc2c1cc1n(c2=O)Cc2c-1nc1cc3c(cc1c2C)OCO3", "species": "Saccharomyces cerevisiae", "measure": "MIC", "strain": "JHY6-1C", "result": ">100 µg/mL"}
{"structure": "COc1c(N2CCNC(C)C2)c(F)cc2c(=O)c(C(=O)O)cn(C3CC3)c12", "species": "Staphylococcus aureus", "measure": "MIC90", "strain": "25 strains (methicillin-susceptible)", "result": "0.25 µg/mL"}

Repeating the first 6 entries:

structure	species	dose	method	measure	strain	changes	cells	result
CCOC(=O)Nc1cc(NC/C(=N/O)c2ccc(Cl)cc2Cl)c([N+](=O)[O-])c(N)n1	Encephalitozoon intestinalis	0.1 µg/mL	-	inhibition	-	-	RK-13	7.1%
CC[C@@]1(OC(=O)CN)C(=O)OCc2c1cc1n(c2=O)Cc2cc3cc4c(cc3nc2-1)OCO4	Saccharomyces cerevisiae	-	-	MIC	Mutant ΔERG6 ΔTOP1	-	-	>100 µg/mL
Nc1ncnc2c1ncn2CCOCP(=O)(O)O	Epstein-Barr virus	0.01 µM	-	inhibition	-	-	P3HR-1	5%
CO/N=C1\CN(c2nc3c(cc2F)c(=O)c(C(=O)O)cn3C2CC2)CC1CN	Haemophilus influenzae	-	-	MIC50	38 strains (ampicillin-susceptible)	-	-	≤0.004 µg/mL
Cc1cn([C@H]2C=C[C@@H](CO)O2)c(=O)[nH]c1=O	HIV-2	-	β-galactosidase / absorbance	EC50	ROD9	-	MAGIC-5A	0.8 µM
NC1CCN(c2nc3c(cc2F)c(=O)c(C(=O)O)cn3-c2ccc(F)cc2F)C1	Staphylococcus aureus	-	-	MIC50	24 strains (ofloxacin-susceptible)	-	-	0.06 µg/mL